Earlier results on one substance are cited in US20240377385A1, “METHODS AND COMPOSITIONS OF MATTER FOR TREATING CANCER AND PREDICTING RESPONSE TO THERAPY” (ICCA INC., priority 2023, published 2024).

For the series, the system named is CD163-positive M2 macrophages. The settings on record: tumor cells loaded with low concentrations of cetuximab; cited from earlier work.

With cetuximab, the “IL-10 and VEGF production” value was “further augmentation”.
